The values that follow come from ChEMBL document CHEMBL4316619 (Bioorg Med Chem Lett, 2019).

Where only a bound is given, the exact number is not on record here.

What all share (details): dog
Series [1] in a line: Selectivity index, ratio of CC50 for cytotoxicity against MDCK cells to EC50 for Influenza A virus (A/California/7/2009(H1N1)) infected in MDCK cells.
Series [2] is described as follows: Selectivity index, ratio of CC50 for cytotoxicity against MDCK cells to EC50 for influenza A virus A/Vietnam/1203/2004 x A/PR/8/34 (H5N1) harboring recombinant NS1 infected in MDCK cells.
Series [3] in a line: Selectivity index, ratio of CC50 for cytotoxicity against MDCK cells to EC50 for Influenza A virus (A/Brisbane/10/2007(H3N2)) infected in MDCK cells.
Series [4] can be described thus: Selectivity index, ratio of compound effect for cytotoxicity against MDCK cells to IC90 for Influenza A virus A/PR/8/34 (H1N1) infected in MDCK cells.

For `Cc1ccc(-n2nc(C)c3c(-c4ccc(O)c(O)c4)c(C#N)c(N)nc32)cc1C`, the Ratio CC50/EC50 in series [1] is 34; in series [2], under 1; in series [3], under 1.
Regarding `COc1cc(-c2ccnc3c2c(C)nn3-c2ccc(C(F)(F)F)cc2)ccc1O`, the Selectivity Index in series [4] is over 100. The Ratio CC50/EC50 was 38 in series [1], under 1 in series [2] and 2 in series [3].
Take `COc1cc(-c2c(C#N)c(N)nc3c2c(C)nn3-c2ccc(F)cc2)cc(OC)c1OC`: the Ratio CC50/EC50 in series [1], in series [2] and in series [3] was under 1 each time.
For the molecule `CCOc1cc(-c2c(C#N)c(O)nc3c2c(C)nn3-c2ccc(F)cc2)ccc1O`, the values for the Ratio CC50/EC50 in series [1], in series [2] and in series [3] were over 29, over 1 and over 1, respectively.
As to `COc1cc(-c2c(C#N)c(N)nc3c2c(C)nn3-c2ccc(F)cc2)ccc1O`, the results for the Ratio CC50/EC50 in series [1], in series [2] and in series [3] were 23, 7 and 5, respectively.
On the same counts, the results for `Cc1nn(-c2ccc(Cl)cc2)c2nc(N)c(C#N)c(-c3ccc(O)c(O)c3)c12` are under 1, under 1 and under 1.
